Anti-infective test results gathered from many reports (values: NIAID ChemDB through PubChem).

All rows: whole-cell or culture tests; agent: Candida albicans; endpoint: MIC

An empty or dashed field is not shown. Lines come from different laboratories, so protocols vary.

SMILES	strain	method	result
Cc1ccc(O)c(C(=O)/C=C/c2ccc(O)cc2O)c1	SDAU3	-	50 µg/mL
O=C(CN1CCCCC1)N/N=C\C(=O)c1ccc(Oc2ccccc2)cc1	-	-	>50 µg/mL
COc1ccc([C@H]2SC(C)C(=O)N2c2nc(N3CCN(C)CC3)n[nH]2)cc1OC	A39	broth dilution	100 µg/mL
NNC(=O)Cc1nnc2n1-c1nc3ccccc3nc1NN2	ATCC 2091	-	200 µg/mL
CCn1nc(C)c([N+](=O)[O-])c1-c1cc(C)on1	-	-	>200 µM
O=C(CN1CCOCC1)N/N=C\C(=O)c1ccccc1	-	-	>50 µg/mL
CN1CCN(c2n[nH]c(N3C(=O)CS[C@@H]3c3ccc4c(c3)OCO4)n2)CC1	159.95	broth dilution	1.58 µg/mL
O=C1/C(=C/c2ccc3c(c2)OCO3)CSc2ccccc21	-	-	6 µg/mL
CC(C)=CCc1cc(O)c(O)c(CC=C(C)C)c1-c1oc2c(CC=C(C)C)c(O)cc(O)c2c(=O)c1O	NIH B311	-	>100 µg/mL
N/C(=N/N=C1CCCC1)SCc1ccccc1	-	-	>200 µg/mL
COc1cc(O)c2c(c1)C(=O)c1c(cc3c(c1O)-c1c(cc(C)c(C(=O)NC(CO)C(=O)O)c1O)[C@H](OC1OC(C)C(N(C)C)C(OC4OCC(O)C(O)C4O)C1O)[C@H]3O)C2=O	ATCC 32354 (B311)	-	6.3 µg/mL
Cc1cc(-c2cc(C)on2)n(C)n1	-	-	>200 µM
N#CC(CC(=O)O)C(N)C(=O)O	83-2-14	-	0.8 µg/mL
Cc1c(O)cccc1C(=O)N[C@@H](CSc1ccccc1)[C@H](O)CN1C[C@H]2CCCC[C@H]2C[C@H]1C(=O)NC(C)(C)C	I131B	-	64 µg/mL
N/C(=N/N=C1CCCCCC1)SCc1ccccc1Cl	-	-	>200 µg/mL
C[C@@H](n1cnc2cc(OCC(F)(F)C(F)F)ccc2c1=O)[C@](O)(Cn1cncn1)c1ccc(F)cc1F	60 strains	-	≤0.03 µg/mL
COc1ccc2c(c1)C(=O)/C(=C/c1ccc3c(c1)OCO3)CS2	-	-	50 µg/mL
CCCCCCCOC[N+](C)(C)Cc1cc(N=Nc2ccc(Cl)cc2)ccc1O	-	-	136 µM
CC1CCCCC/C1=N\Nc1nc(-c2ccccc2)cs1	-	-	3.12 µg/mL
O=C(CN1CCOCC1)N/N=C\C(=O)c1ccc(Oc2ccccc2)cc1	-	-	>50 µg/mL
COc1ccc(-c2nnc(SCC(O)(Cn3cncn3)c3ccc(F)cc3F)n2N)cc1	IRFC 36	broth dilution	>64 µg/mL
CS[C@@H](n1cncn1)[C@](O)(Cn1cncn1)c1ccc(F)cc1	-	-	>100 µg/mL
COc1cc(O)c2c(c1CC=C(C)C)O[C@H](c1c(CC=C(C)C)cc(OC)c(OC)c1CC=C(C)C)[C@@H](O)C2=O	NIH B311	-	>100 µg/mL
O=C(NC1=Nc2ccc3ccccc3c2SC1)Oc1ccccc1	CBS 562	-	>100 µg/mL
CC1C(=O)C(C)C(c2ccc(Cl)cc2)N(OCCc2nc3ncccc3[nH]2)C1c1ccc(Cl)cc1	6 (NCIM-C27)	-	50 µg/mL
Cc1ccc2sn(NS(=O)(=O)c3ccc(N)cc3)c(=O)c2c1	ATCC 10231	-	>100 µg/mL
CCCCCCCCCCCCOC[N+](C)(C)Cc1cc(N=Nc2ccc(C)cc2)ccc1O	-	-	1986 µM
O=C(ONC1=Nc2ccc(Cl)cc2SCC1)c1ccccc1	CBS 562	-	>100 µg/mL
C(=N\Nc1nnc2c(n1)Nc1ccccc1C2)/c1ccccc1	ATCC 2091	-	200 µg/mL
COc1ccc(/C=C2\COc3ccc(OC)cc3C2=O)cc1	-	-	25 µg/mL
Nn1c(SCC(O)(Cn2cncn2)c2ccc(Cl)cc2Cl)nnc1-c1cccc(Br)c1	ATCC 18804	broth dilution	>64 µg/mL
ONC1=Nc2cnc3ccccc3c2SC1	CBS 562	-	>100 µg/mL
COc1ccc(C2CC(=O)C(C)C(c3ccc(OC)cc3)N2OCCc2nc3ncccc3[nH]2)cc1	51 (NCIM-C27)	-	25 µg/mL
Cc1cc(Br)c2ncn([C@H](C)[C@](O)(Cn3cncn3)c3ccc(F)cc3F)c(=O)c2c1	60 strains	-	0.07 µg/mL
N/C(=N/N=C1CCCC1)SCc1ccccc1Cl	-	-	>200 µg/mL
O=C(ONC1=Nc2cc(Cl)ccc2SCC1)c1ccccc1	CBS 562	-	>100 µg/mL
N/C(=N/N=C1CCCCCCC1)SCc1ccccc1	-	-	>200 µg/mL
CC1C(=O)C(C)C(c2ccccc2)N(OCCc2nc3ncccc3[nH]2)C1c1ccccc1	NCIM-C27	-	50 µg/mL
COc1ccc(-c2nnc(SCC(O)(Cn3cncn3)c3ccc(Cl)cc3Cl)n2N)cc1	IRFC 36	broth dilution	>64 µg/mL
CC1(C)CC(=O)c2cc(/C=C/C(=O)c3ccc(Br)cc3)[nH]c2C1	ATCC 2091	-	200 µg/mL
CCOC[N+](C)(C)Cc1cc(N=Nc2ccc(C)cc2)ccc1O	-	-	688 µM
CC(C)N=C(N)c1ccc2nc(-c3ccc4c(c3)Cc3cc(-c5nc6ccc(C(N)=NC(C)C)cc6[nH]5)ccc3-4)[nH]c2c1	ATCC 76615	-	1.56 µg/mL
CC1S[C@H](c2ccc3c(c2)OCO3)N(c2nc(N3CCN(C)CC3)n[nH]2)C1=O	A39	broth dilution	3.12 µg/mL
Cc1ccc(-c2nnc(SCC(O)(Cn3cncn3)c3ccc(Cl)cc3Cl)n2N)cc1	PTCC 6027	broth dilution	2 µg/mL
C[C@@H](n1cnc2cc(N(C)C)ccc2c1=O)[C@](O)(Cn1cncn1)c1ccc(F)cc1F	406 strains	-	≤0.03 µg/mL
C[N+](C)(COCC1CCCCC1)Cc1cc(N=Nc2ccc(Cl)cc2)ccc1O	-	-	68 µM
Cc1ccc(/C=C2\CSc3ccccc3C2=O)cc1	-	-	50 µg/mL
COc1ccc(C2CC(=O)CC(c3ccc(OC)cc3)N2OCCc2nc3ncccc3[nH]2)cc1	NCIM-C27	-	50 µg/mL
CO[C@@H](n1cncn1)[C@@](O)(Cn1cncn1)c1ccc(F)cc1F	-	-	>100 µg/mL
Nn1c(SCC(O)(Cn2cncn2)c2ccc(Cl)cc2Cl)nnc1-c1ccccc1	IRFC 192	broth dilution	>64 µg/mL
C[C@H]1[C@H](O)[C@@H](C)/C=C/C=C/C=C/C=C/C=C/C=C/C=C/[C@H](O[C@@H]2O[C@H](C)[C@@H](O)[C@H](N)[C@@H]2O)C[C@@H]2O[C@](O)(C[C@@H](O)C[C@@H](O)CC[C@H](O)[C@@H](O)C[C@@H](O)CC(=O)O[C@H]1C)C[C@H](O)[C@H]2C(=O)O	90029	broth dilution	0.03 µg/mL
O=C(Nc1nc2ccc(NC(=O)[C@@H]3CCC[C@H](NCc4ccc5ccccc5c4)C3)cc2s1)C1CCCC1	ATCC 44859	-	0.78 µM
Cc1ccc(-c2nnc(SCC(O)(Cn3cncn3)c3ccc(F)cc3F)n2N)cc1	PTCC 6027	broth dilution	>64 µg/mL
N/C(=N/N=C1CCCCCC1)SCc1ccc(Cl)cc1Cl	-	-	>200 µg/mL
CO[C@@H](n1cccn1)[C@@](O)(Cn1ccnc1)c1ccc(Cl)cc1	-	-	>100 µg/mL
C[C@@H](n1cnc2cc(Cl)ccc2c1=O)[C@](O)(Cn1cncn1)c1ccc(Cl)cc1Cl	406 strains	-	≤0.03 µg/mL
CC(=O)ONC1=Nc2ccccc2SC1c1ccccc1	CBS 562	-	>100 µg/mL
CO[C@@H](n1cncn1)[C@](O)(Cn1ccnc1)c1ccc(F)cc1	-	-	>100 µg/mL
Nn1c(SCC(O)(Cn2cncn2)c2ccc(Cl)cc2Cl)nnc1-c1ccc(Cl)cc1Cl	ATCC 18804	broth dilution	4 µg/mL
CCCCn1nc(-c2cc(C)on2)c(N=O)c1C	-	-	>200 µM
Cc1ccc(N=Nc2ccc(O)c(C[N+](C)(C)COC3CCC(C)CC3)c2)cc1	-	-	72 µM
CC(/C=C/C=C(\C)C(O)C(C)C(=O)O[C@H]1C[C@@H](C)C=C2C=C[C@]3(C)O[C@@H](O)CC(=O)[C@]3(C)[C@H]21)=C\C=C\C(=O)O	AC3401	-	0.78 µg/mL
Cc1cc(-c2c(N=O)c(C)nn2CCO)no1	-	-	66 µM
COC(/C=C/c1ccccc1)=C1/C(=O)C=C(C)C1=O	ATCC 90028	-	1.56 µg/mL
O=C(/C=C/c1cc(O)ccc1O)c1ccccc1	ATCC 18804	-	100 µg/mL
CCN(CC)CC(=O)N/N=C\C(=O)c1ccc(-c2ccccc2)cc1	-	-	>50 µg/mL
CCn1nc(C)c(N=O)c1-c1cc(C)on1	-	-	19 µM
Nn1c(SCC(O)(Cn2cncn2)c2ccc(F)cc2F)nnc1-c1ccc(F)cc1	IRFC 36	broth dilution	>64 µg/mL
CSc1ccc2c(=O)n([C@H](C)[C@](O)(Cn3cncn3)c3ccc(F)cc3F)cnc2c1	60 strains	-	≤0.03 µg/mL
Nn1c(SCC(O)(Cn2cncn2)c2ccc(F)cc2F)nnc1-c1cccc(Br)c1	IRFC 37	broth dilution	>64 µg/mL
CO[C@@H](n1cccn1)[C@](O)(Cn1cncn1)c1ccc(Cl)cc1	-	-	>100 µg/mL
S=c1nc2c(n[nH]1)Nc1ccccc1N2	ATCC 2091	-	200 µg/mL
COc1cc(O)c2c(c1)C(=O)c1c(cc3c(c1O)-c1c(cc(C)c(C(=O)N[C@H](CO)C(=O)O)c1O)[C@H](OC1OC(C)C(N)C(OC4OCC(O)C(O)C4O)C1O)[C@H]3O)C2=O	IAM4888	-	6.3 µg/mL
CCCCCC(=O)O[C@H]1[C@H](OC(=O)CCCCC)[C@H](OCC23C4C=C(C(C)C)C2(C(=O)O)C(C=O)(C4)[C@@H]2CC[C@@H](C)[C@H]23)O[C@H](C)[C@H]1OC	2402	-	8 µg/mL
O=C(CN1CCCCC1)N/N=C\C(=O)c1ccc(Sc2ccccc2)cc1	-	-	>50 µg/mL

A second listing of 11 rows from above:

SMILES,strain,method,result
N/C(=N/N=C1CCCCCCC1)SCc1ccccc1,-,-,>200 µg/mL
CC(=O)ONC1=Nc2ccccc2SC1c1ccccc1,CBS 562,-,>100 µg/mL
CC1S[C@H](c2ccc3c(c2)OCO3)N(c2nc(N3CCN(C)CC3)n[nH]2)C1=O,A39,broth dilution,3.12 µg/mL
O=C(CN1CCCCC1)N/N=C\C(=O)c1ccc(Sc2ccccc2)cc1,-,-,>50 µg/mL
O=C(ONC1=Nc2ccc(Cl)cc2SCC1)c1ccccc1,CBS 562,-,>100 µg/mL
Nn1c(SCC(O)(Cn2cncn2)c2ccc(Cl)cc2Cl)nnc1-c1ccc(Cl)cc1Cl,ATCC 18804,broth dilution,4 µg/mL
Cc1ccc2sn(NS(=O)(=O)c3ccc(N)cc3)c(=O)c2c1,ATCC 10231,-,>100 µg/mL
N#CC(CC(=O)O)C(N)C(=O)O,83-2-14,-,0.8 µg/mL
NNC(=O)Cc1nnc2n1-c1nc3ccccc3nc1NN2,ATCC 2091,-,200 µg/mL
COc1ccc([C@H]2SC(C)C(=O)N2c2nc(N3CCN(C)CC3)n[nH]2)cc1OC,A39,broth dilution,100 µg/mL
O=C1/C(=C/c2ccc3c(c2)OCO3)CSc2ccccc21,-,-,6 µg/mL